For this experiment, the target named is Human immunodeficiency virus type 1 reverse transcriptase (Human immunodeficiency virus 1, UniProt Q72547). Put plainly: Inhibition of wild type HIV-1 reverse transcriptase using […] as template/primer assessed as inhibition of biotin-dUTP incorporation after 1 hr by microtiter plate ELISA reader analysis.

In the case of `Cc1cc(C#N)cc(C)c1Oc1nc(Nc2ccc(C#N)cc2)nc(N)c1Br` [ETRAVIRINE], the IC50 came out at 6.5 µM.

What is called IC50 is the midpoint of a concentration-inhibition curve.
